Values from PubChem BioAssay AID1259414 (Drosophila RNAi Screening Center, 2018)
Test: 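Host factors increasing or decreasing Wolbachia levels in cultured fly cells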 (primary screen). System: Drosophila JW18 cells infected with Wolbachia. Knock-down reagent: long dsRNA against Drosophila genes, 0.25 µg dsRNA per well of a 384-well plate. Timing: 5 days. Conditions: cells persistently infected with Wolbachia before knock-down; no added drug. Read-out: 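Automated imaging of bacterial rRNA staining divided by host cell count, reported as plate-normalised robust z-score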. Scale: Wolbachia per cell robust z: higher = more Wolbachia per host cell than the plate typical. Rule for the call: 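Active if absolute robust z reaches 1.5 in two or more of three replicates, leaving out multi- or no-target dsRNAs, genes unexpressed in JW18 and A1 wells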.
The deposit covers about 24,000 reagents; shown is an unselected part of those with a known target gene and a result. Over the whole deposit, about 1,210 (5%) got an active call. 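Inactive calls also include excluded dsRNAs with several or no targets, genes unexpressed in JW18, and well A1, regardless of score.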 Reagents against one gene are numbered here. A plus sign joins genes that one reagent is predicted to hit.

With mRpL32, how do the results read?
Wolbachia per cell robust z, rep 1: -1.21; Wolbachia per cell robust z, rep 2: -3.45; Wolbachia per cell robust z, rep 3: -1.97; activity call: active

For Ndfip, what was measured?
Wolbachia per cell robust z, rep 1: -0.988; Wolbachia per cell robust z, rep 2: -0.382; Wolbachia per cell robust z, rep 3: -1.43; activity call: inactive

What is on record for Syx8 #1?
Wolbachia per cell robust z, rep 1: 0.138; Wolbachia per cell robust z, rep 2: 0.396; Wolbachia per cell robust z, rep 3: 1.07; activity call: inactive

For Syx8 #2, what was measured?
Wolbachia per cell robust z, rep 1: -0.0134; Wolbachia per cell robust z, rep 2: -1.82; Wolbachia per cell robust z, rep 3: -0.534; activity call: inactive

Which result is listed for Syx8 #3?
Wolbachia per cell robust z, rep 1: 0.43; Wolbachia per cell robust z, rep 2: -0.38; Wolbachia per cell robust z, rep 3: -1.17; activity call: inactive

With CG10948, what does the deposit list?
Wolbachia per cell robust z, rep 1: 0.597; Wolbachia per cell robust z, rep 2: -0.444; Wolbachia per cell robust z, rep 3: 0.788; activity call: inactive

For Mct1 #1, what does the deposit list?
Wolbachia per cell robust z, rep 1: 0.0778; Wolbachia per cell robust z, rep 2: -0.149; Wolbachia per cell robust z, rep 3: 0.348; activity call: inactive

What did the screen give for Mct1 #2?
Wolbachia per cell robust z, rep 1: -1.98; Wolbachia per cell robust z, rep 2: -0.0505; Wolbachia per cell robust z, rep 3: -1.24; activity call: inactive

With CG17564 #1, what does the deposit list?
Wolbachia per cell robust z, rep 1: 0.436; Wolbachia per cell robust z, rep 2: 0.93; Wolbachia per cell robust z, rep 3: 1.09; activity call: inactive

With CG17564 #2, what does the deposit list?
Wolbachia per cell robust z, rep 1: -0.828; Wolbachia per cell robust z, rep 2: 0.385; Wolbachia per cell robust z, rep 3: 1.18; activity call: inactive

Which result is listed for CG10598 #1?
Wolbachia per cell robust z, rep 1: -0.19; Wolbachia per cell robust z, rep 2: 0.25; Wolbachia per cell robust z, rep 3: -1.56; activity call: inactive

For CG10598 #2, what was measured?
Wolbachia per cell robust z, rep 1: -1.36; Wolbachia per cell robust z, rep 2: 0.0636; Wolbachia per cell robust z, rep 3: -0.119; activity call: inactive

With CG3515, what was measured?
Wolbachia per cell robust z, rep 1: -0.171; Wolbachia per cell robust z, rep 2: 0.0948; Wolbachia per cell robust z, rep 3: -6.66; activity call: inactive

What did the screen give for Tcs1 + Polr3K?
Wolbachia per cell robust z, rep 1: 0.0229; Wolbachia per cell robust z, rep 2: 0.443; Wolbachia per cell robust z, rep 3: 0.854; activity call: inactive

How did the screen score CG4239?
Wolbachia per cell robust z, rep 1: -0.139; Wolbachia per cell robust z, rep 2: -4.46; Wolbachia per cell robust z, rep 3: 0.324; activity call: inactive

With CG33648, what was measured?
Wolbachia per cell robust z, rep 1: 1.26; Wolbachia per cell robust z, rep 2: 0.538; Wolbachia per cell robust z, rep 3: 0.716; activity call: inactive

How did the screen score emp #1?
Wolbachia per cell robust z, rep 1: 0.311; Wolbachia per cell robust z, rep 2: 0.179; Wolbachia per cell robust z, rep 3: -0.107; activity call: inactive

With emp #2, how do the results read?
Wolbachia per cell robust z, rep 1: -1.16; Wolbachia per cell robust z, rep 2: 0.88; Wolbachia per cell robust z, rep 3: 0.821; activity call: inactive

What did the screen give for Sptr?
Wolbachia per cell robust z, rep 1: 1.27; Wolbachia per cell robust z, rep 2: -4.82; Wolbachia per cell robust z, rep 3: 1.78; activity call: inactive

What is on record for Sce?
Wolbachia per cell robust z, rep 1: 0.788; Wolbachia per cell robust z, rep 2: 4.02; Wolbachia per cell robust z, rep 3: -0.212; activity call: inactive

Which result is listed for CG32365?
Wolbachia per cell robust z, rep 1: 1.01; Wolbachia per cell robust z, rep 2: -0.412; Wolbachia per cell robust z, rep 3: -0.386; activity call: inactive

How did the screen score CG5704?
Wolbachia per cell robust z, rep 1: -2.18; Wolbachia per cell robust z, rep 2: -0.229; Wolbachia per cell robust z, rep 3: -0.858; activity call: inactive

How did the screen score Gr98a?
Wolbachia per cell robust z, rep 1: 0.417; Wolbachia per cell robust z, rep 2: 0.782; Wolbachia per cell robust z, rep 3: 0.73; activity call: inactive

For BOD1 #1, how do the results read?
Wolbachia per cell robust z, rep 1: -5.48; Wolbachia per cell robust z, rep 2: -3.25; Wolbachia per cell robust z, rep 3: -3.3; activity call: inactive

How did the screen score BOD1 #2?
Wolbachia per cell robust z, rep 1: -2.04; Wolbachia per cell robust z, rep 2: -1.43; Wolbachia per cell robust z, rep 3: -1.39; activity call: inactive

What did the screen give for ChLD3?
Wolbachia per cell robust z, rep 1: -1.21; Wolbachia per cell robust z, rep 2: 0.384; Wolbachia per cell robust z, rep 3: -0.383; activity call: inactive

What did the screen give for CG13972 #1?
Wolbachia per cell robust z, rep 1: -0.812; Wolbachia per cell robust z, rep 2: 0.0122; Wolbachia per cell robust z, rep 3: 0.863; activity call: inactive

How did the screen score CG13972 #2?
Wolbachia per cell robust z, rep 1: 0.411; Wolbachia per cell robust z, rep 2: 0.0283; Wolbachia per cell robust z, rep 3: -0.611; activity call: inactive

What is on record for Ald1 #1?
Wolbachia per cell robust z, rep 1: -0.287; Wolbachia per cell robust z, rep 2: -0.389; Wolbachia per cell robust z, rep 3: 0.109; activity call: inactive

For Ald1 #2, what does the deposit list?
Wolbachia per cell robust z, rep 1: 1.1; Wolbachia per cell robust z, rep 2: 1.04; Wolbachia per cell robust z, rep 3: -0.0834; activity call: inactive

For Ald1 #3, what does the deposit list?
Wolbachia per cell robust z, rep 1: -0.808; Wolbachia per cell robust z, rep 2: -0.974; Wolbachia per cell robust z, rep 3: 0.851; activity call: inactive
